Taken from: PubChem BioAssay AID1259414 (Drosophila RNAi Screening Center, 2018)

- Purpose: 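Genome-wide screen for host control of endosymbiont load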 (primary screen)
- Cell system: Drosophila JW18 cells infected with Wolbachia
- Reagents: long dsRNA against Drosophila genes, 0.25 µg dsRNA per well of a 384-well plate
- Duration: 5 days
- Conditions: cells persistently infected with Wolbachia before knock-down; no added drug
- Detection: 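Automated imaging of bacterial rRNA staining divided by host cell count, reported as plate-normalised robust z-score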
- Reading the numbers: Wolbachia per cell robust z: higher = more Wolbachia per host cell than the plate typical
- Hit rule: 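Active if absolute robust z reaches 1.5 in two or more of three replicates, leaving out multi- or no-target dsRNAs, genes unexpressed in JW18 and A1 wells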
The deposit covers about 24,000 reagents; below is a random part of those with a known target gene and a result. Over the whole deposit, about 1,210 (5%) were called active. 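Inactive calls also include excluded dsRNAs with several or no targets, genes unexpressed in JW18, and well A1, regardless of score.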 A number with no mark means an inactive call. Reagents against one gene are numbered here. Names joined by + are all predicted targets of the reagent.

target gene	reagent	Wolbachia per cell robust z, rep 1	Wolbachia per cell robust z, rep 2	Wolbachia per cell robust z, rep 3
CG13077	1	0.275	0.25	0.724
CG5348	1	0.407	0.219	0.126
CG15043	1	-0.205	-0.233	0.547
CG15043	2	1.1	0.902	0.804
CG31650	1	1.16 (active)	1.66	1.51
CG31650	2	-0.643	-1.13	-6.92
CG30096	1	-0.183	0.64	-0.313
CG14434	1	0.746 (active)	-3.99	-2.99
Trim9	1	-1.51	0.0502	-0.684
Trim9	2	-7.34	-0.787	-1.75
CG5098	1	0.515	-0.808	-0.853
CG5098	2	-1.2	-0.939	-0.591
CG14435	1	0.339	-0.665	-0.0754
Acam + CG17770	1	0.348	0.702	-0.988
CG34437	1	-1.31	-5.41	0.271
atilla	1	-0.662	-0.117	-0.346
atilla	2	0.41	-0.515	-0.0453
p47	1	1.53	-3.2	0.758
Nepl10	1	-0.819	-1.89	-0.622
CG1927	1	0.259	0.928	1.5
kmr	1	-0.849	-1.07	0.169
kmr	2	0.416	-0.083	0.447
kmr	3	-11.2	0.34	-0.00997
kmr	4	-0.556	0.605	-0.124
kmr	5	-1.56 (active)	-2.32	-1.41
CG14135	1	0.198	0.223	0.997
CG42259	1	-2.42 (active)	-1.51	-1.96
pelo	1	0.277	0.937	0.0662
mre11	1	-3.3	-0.347	0.51
mre11	2	1.27	0.799	0.925
mre11	3	0.495	0.397	0.6
CG13615	1	-0.682	-1.92	0.872
CG13615	2	-7.27	-0.908	0.646
qkr54B	1	-1.53 (active)	-2.4	-2.34
qkr54B	2	-0.17	-0.26	-0.455
CG17026	1	1.22	0.906	1.79
CG17026	2	-1.06	-0.439	-0.79
MstProx	1	-1.46	-2.59	-1.04
MstProx	2	1.07	0.313	0.73
CG15322	1	1.43	0.366	0.744
CG15322	2	-0.82	-1.29	-3.73
robls54B	1	-1.21	-1.64	0.284
Tim17a2	1	0.709	0.341	0.37
Tim17a2	2	0.725	-0.349	0.65
CG5731	1	-0.199	0.0687	0.18
CG5731	2	-4.25	0.112	-1.22

5 neighbouring entries from above:
target gene	reagent	Wolbachia per cell robust z, rep 1	Wolbachia per cell robust z, rep 2	Wolbachia per cell robust z, rep 3
kmr	5	-1.56 (active)	-2.32	-1.41
CG14135	1	0.198	0.223	0.997
CG42259	1	-2.42 (active)	-1.51	-1.96
pelo	1	0.277	0.937	0.0662
mre11	1	-3.3	-0.347	0.51
